Here are results for 22 substances from article PMC7954794, “Protein context shapes the specificity of SH3 domain-mediated interactions in vivo” (Nature Communications, 2021).

The amount applied is not stated for every result.

What all share (assay type): cell-based, Saccharomyces cerevisiae
What all share (set-up): key: 0: SH3-independent; 1: SH3-dependent PPIs; 2: SH3-inhibited PPIs

Data set [1] concerns BEM1-1. In words: DHFR-PCA on solid medium, bait BEM1-1 (Fig. 1B). To be noted: bait BEM1-1, label = prey. The text has this:
(§1) Supplement 41467_2021_21873_MOESM8_ESM.xlsx, sheet "Fig1B" | column: medsize; medrep; Ratio; Score

Data set [2] deals with ABP1. Put plainly: DHFR-PCA on solid medium, bait ABP1 (Fig. 1B). To be noted: bait ABP1, label = prey.
From the text: as §1

For data set [3], the system named is BEM1-2. In words: DHFR-PCA on solid medium, bait BEM1-2 (Fig. 1B). As to conditions: bait BEM1-2, label = prey.
From the text: as §1

Turning to YAL005C, the Score in data set [1], in data set [2] and in data set [3] was 0 each time.

As to YBL017C, the Score in data set [2] worked out at 2.

Take YBR234C: the Score in data set [1], in data set [2] and in data set [3] was 0 in each case.

For “YCR088W (PWATAEYDYDAAEDNELTFVENDKIINIEFVDDDWWLGELEKDGSKGLFPSNYVSLGN)”, the Score in data set [1] was 1; in data set [2], 0; in data set [3], 0.

YDL229W: the Score in data set [1], in data set [2] and in data set [3] was 0 in each case.

The substance YDR170C registered a Score in data set [2] of 2.

Turning to YDR265W, the Score in data set [1] is recorded as 2.

As to “YDR388W (ETVTALYDYQAQAAGDLSFPAGAVIEIVQRTPDVNEWWTGRYNGQQGVFPGNYVQLNK)”, the Score in data set [2] was 0.

YER166W returned a Score in data set [2] of 0.

In data set [2], YFR004W displayed a Score of 2.

In turn, “YFR024C-A (PKAVALYSFAGEESGDLPFRKGDVITILKKSDSQNDWWTGRVNGREGIFPANYVELV)” registered a Score in data set [2] of 0.

As to YGL206C, the Score in data set [2] is 0; in data set [3], 2.

Consider “YHR016C (SATPTAVALYNFAGEQPGDLAFKKGDVITILKKSDSQNDWWTGRTNGKEGIFPANYVRVS)”, for which the Score in data set [2] worked out at 0.

For YIL062C, in data set [2], the Score is listed as 0.

The substance YJL210W showed a Score in data set [1] of 2.

In turn, YLR370C showed a Score in data set [2] of 0.

YMR026C displayed a Score in data set [1] of 2.

As to “YMR109W (PMFEAAYDFPGSGSPSELPLKKGDVIYITREEPSGWSLGKLLDGSKEGWVPTAYMKPHS)”, the values for the Score in data set [1], in data set [2] and in data set [3] were 1, 0 and 1, respectively.

Take YNL138W: the Score in data set [2] was found to be 0.

For the substance YOR181W, the Score in data set [2] was found to be 0.

“YPR154W (EYVEALYQFDPQQDGDLGLKPGDKVQLLEKLSPEWYKGSCNGRTGIFPANYVKPAF)” yielded a Score in data set [2] of 0.

Regarding YPR184W, the Score in data set [2] is recorded as 0.
